Pooled drug test results. Numbers come from NIAID ChemDB, via PubChem.

Shared fields: whole-cell or culture tests; organism: Poliovirus; read-out: EC50

Rows are shuffled and stem from different studies. Blank or dashed fields: not listed here. ECn: concentration that inhibits the pathogen or its effect by n%.

smiles	cell line	strain or isolate	value
COc1cc(C(=O)Oc2c(-c3ccc(Cl)cc3)oc3ccccc3c2=O)cc(OC)c1OC(C)=O	HeLa	TYPE 2	>1.56 µM
c1ccc(C2COc3ccccc3C2)cc1	HEP-2	IA (TYPE 2)	<10 µM
COc1ccc(OCCCCCCn2ccnc2)c(Cl)c1	HeLa	TYPE 2/MEF1	10.2 µM
O=C1/C(=C/c2ccc(Cl)cc2)COc2cc(Cl)cc(Cl)c21	HeLa	TYPE 2	>6.25 µM
C=CCc1nc(C)n2c(=O)[nH]c(NC(C)=O)nc12	HeLa	TYPE 1	>400 µg/mL
Nc1nc2c(ccn2[C@H]2CO[C@@H](CO)C2)c(=O)[nH]1	HeLa	TYPE 1	>400 µg/mL
Cc1nc(CC(O)CO)c2nc[nH]c(=O)n12	HeLa	TYPE 1	>400 µg/mL
O=C1c2ccccc2OCC1Cc1ccc(O)cc1	HeLa	TYPE 2	>6.25 µM
C=CCc1ncn2c(=O)[nH]c(NC(C)=O)nc12	HeLa	TYPE 1	>400 µg/mL
Nc1ncnc2c1ncn2[C@@H]1C=C(CO)[C@@H](O)[C@@H]1O	HeLa	TYPE 1	>400 µg/mL
O=c1c(Cc2ccccc2)coc2ccccc12	HeLa	TYPE 2	>25 µM
Clc1ccc2c(c1)C=C(c1ccc(Br)cc1)CO2	HEP-2	TYPE 2	>10 µM
CSc1nsc(-c2ccncc2)c1C#N	HEP-2	Type 1/Brunhilde	>2.5 µM
CC=NC(=N)c1nc(-c2ccccc2)n(C/C=C/c2ccccc2)n1	HeLa	TYPE 1	>10 µg/mL
CSc1nsc(C)c1C#N	HEP-2	Type 1/Brunhilde	12.5 µM
CC=NC(=N)c1nc(-c2cccc(C)c2)n(COCCO)n1	HeLa	TYPE 1	>200 µg/mL
Nc1ncnc2c1ncn2CC[C@H](O)CCO	HeLa	TYPE 1	>400 µg/mL
COc1ccc(/C=C2\COc3ccccc3C2=O)cc1	HeLa	TYPE 2	>6.25 µM
CN=C(c1ccccc1)c1ccc2nc(N)n(S(=O)(=O)C(C)C)c2c1	HeLa	Type 1/Mahoney	0.06 µg/mL
Clc1ccc(C2COc3ccccc3C2)cc1	HEP-2	IA (TYPE 2)	>10 µM
CO[C@H](CO)[C@@H](O)CCn1ccc(N)nc1=O	HeLa	TYPE 1	>400 µg/mL
C=C(N=CC)c1nc(-c2ccc(C)cc2)n(C2O[C@H](CO)[C@@H](O)[C@H](O)[C@H]2O)n1	HeLa	TYPE 1	>200 µg/mL
COc1ccc(-c2cc(N3CCCCC3)no2)c(O)c1	VERO	SABIN (TYPE 1)	>364 µM
CC=NC(=N)c1nc(-c2ccccc2)n(Cc2ccccc2)n1	HeLa	TYPE 1	>10 µg/mL
COc1ccc(CC2COc3ccccc3C2=O)cc1	HeLa	TYPE 2	>6.25 µM
CSc1nsc(-c2ccc(O)cc2)c1C#N	HEP-2	Type 1/Brunhilde	0.4 µM
CCN(CC)c1noc(-c2ccc(O)cc2O)c1Cc1c(N(CC)CC)noc1-c1ccc(OC)cc1O	VERO	SABIN (TYPE 1)	>3.5 µM
CCCCCCCCCCCCCCCCCCCCCCO	VERO	-	>5 µg/mL
S=c1cc(-c2ccccc2)s[nH]1	HEP-2	Type 1/Brunhilde	0.42 µM
Nc1ncnc2c1ncn2[C@@H]1C=C(CO)[C@@H](O)C1	HeLa	TYPE 1	>400 µg/mL
COc1cc(C(=O)Oc2c(-c3ccc(Cl)cc3)oc3ccccc3c2=O)ccc1O	HeLa	TYPE 2	>6.25 µM
C[C@@]1(O)[C@H](O)[C@@H](COP(=O)(O)OP(=O)(O)OP(=O)(O)O)O[C@H]1n1ccc2c(N)ncnc21	VERO	TYPE 3	5.9 µM
COc1cc(C(=O)Oc2c(-c3ccc(Cl)cc3)oc3ccccc3c2=O)ccc1OC(C)=O	HeLa	TYPE 2	>6.25 µM
Nc1ncnc2c1ncn2C[C@H](O)CO	HeLa	TYPE 1	>200 µg/mL
Nc1ccn([C@@H]2C=C(CO)[C@@H](O)[C@H]2O)c(=O)n1	HeLa	-	0.1 µg/mL
CC(=O)Oc1ccc(/C=C/C(=O)Oc2c(-c3ccc(Cl)c(Cl)c3)oc3ccccc3c2=O)cc1OC(C)=O	HeLa	TYPE 2	>0.39 µM
Cc1nc(C(C)C)c2[nH]c(=S)[nH]c(=O)n12	HeLa	TYPE 1	300 µg/mL
Clc1ccc2c(c1)CC(c1ccccc1)CO2	HEP-2	II (TYPE 2)	>10 µM
CCOc1ccc(-c2cc(N(CC)CC)no2)c(O)c1	VERO	SABIN (TYPE 1)	>362 µM
CC=NC(=N)c1nc(-c2cccc(OC)c2)n(Cc2ccccc2)n1	HeLa	TYPE 1	>10 µg/mL
CCN(CC)c1cc(-c2ccc(O)cc2O)on1	VERO	SABIN (TYPE 1)	25 µM
CC=NC(=N)c1nc(-c2ccc(OC)cc2)n(C/C=C/c2ccccc2)n1	HeLa	TYPE 1	>400 µg/mL
Nc1ncnc2c1ncn2[C@@H]1C=C(CO)[C@@H](O)[C@H]1O	HeLa	TYPE 1	≥40 µg/mL
CC=NC(=N)c1nc(-c2cccc(C)c2)n(Cc2ccccc2)n1	HeLa	TYPE 1	>10 µg/mL
Nc1ccn(CC[C@H](O)CCO)c(=O)n1	HeLa	TYPE 1	>400 µg/mL
Nc1ncnc2c1ncn2[C@@H]1C[C@H](COP(=O)(O)O)[C@@H](O)[C@H]1O	HeLa	TYPE 1	>400 µg/mL
CCN(CC)c1cc(-c2ccc(OC)cc2OC)on1	VERO	SABIN (TYPE 1)	20 µM
C=CC1=C[C@@H](n2cnc3c(N)ncnc32)[C@H](O)[C@@H]1O	HeLa	TYPE 1	>400 µg/mL
Cc1nnc2nc3c(nn12)c1ccccc1n3C	BSC-1	TYPE 1	>60 µg/mL
Nc1nc2c(ncn2CC[C@H](O)CCO)c(=O)[nH]1	HeLa	TYPE 1	>400 µg/mL
COc1nsc(-c2ccccc2)c1C#N	HEP-2	Type 1/Brunhilde	0.5 µM
CC(=O)c1c(-c2ccc(Cl)c(Cl)c2)oc2ccccc2c1=O	HeLa	TYPE 2	>25 µM
CSc1nsc(C2CCCCC2)c1C#N	HEP-2	Type 1/Brunhilde	>50 µM
CC1=C[C@@H](n2cnc3c(N)ncnc32)[C@H](O)[C@@H]1O	HeLa	TYPE 1	>200 µg/mL
Nc1nc(Cl)c2ncn([C@H]3CO[C@@H](CO)C3)c2n1	HeLa	TYPE 1	>200 µg/mL
Nc1nccc2c1ncn2[C@@H]1C[C@H](CO)[C@@H](O)[C@H]1O	HeLa	TYPE 1	>400 µg/mL
O=c1c(O)c(-c2ccc(Cl)c(Cl)c2)oc2ccccc12	HeLa	TYPE 2	>6.25 µM
Nc1ncnc2c1ncn2C[C@H](O)CO	HeLa	TYPE 1	>400 µg/mL
CSc1nsc(-c2cccs2)c1C#N	HEP-2	Type 1/Brunhilde	0.1 µM
CC=NC(=N)c1nc(-c2ccc(C)cc2)n(COCCO)n1	HeLa	TYPE 1	>200 µg/mL
CN(C)c1cc(-c2ccc(O)cc2O)on1	VERO	SABIN (TYPE 1)	110 µM

A second listing of 6 rows from above:

smiles,cell line,strain or isolate,value
COc1cc(C(=O)Oc2c(-c3ccc(Cl)cc3)oc3ccccc3c2=O)ccc1O,HeLa,TYPE 2,>6.25 µM
COc1ccc(-c2cc(N3CCCCC3)no2)c(O)c1,VERO,SABIN (TYPE 1),>364 µM
Nc1ncnc2c1ncn2[C@@H]1C[C@H](COP(=O)(O)O)[C@@H](O)[C@H]1O,HeLa,TYPE 1,>400 µg/mL
Nc1ncnc2c1ncn2C[C@H](O)CO,HeLa,TYPE 1,>200 µg/mL
Cc1nnc2nc3c(nn12)c1ccccc1n3C,BSC-1,TYPE 1,>60 µg/mL
C=CCc1nc(C)n2c(=O)[nH]c(NC(C)=O)nc12,HeLa,TYPE 1,>400 µg/mL